Compound potency records, mixed from different reports. Data source: NIAID ChemDB in PubChem.

All rows: tests in culture; agent: Candida albicans; endpoint: MIC90

MIC50, MIC90 and the like: level of inhibition, or share of isolates inhibited. Blank or dashed fields: not listed here. Conditions beyond the fields shown may differ between rows.

smiles	strain or isolate	read by	setting	result
Clc1ccc(C(Cn2cncn2)OCc2cccc3ccccc23)c(Cl)c1				>100 µg/mL
Clc1cccc(Cl)c1COc1ccc(C(c2ccc3ccccc3c2)n2ccnc2)cc1.O=[N+]([O-])O	17 strains			≥256 µg/mL
c1ccc2c(C(c3ccc(-n4cccc4)cc3)n3ccnc3)cccc2c1	23 strains			4 µg/mL
COc1ccc(C(Cc2ccccc2[N+](=O)[O-])n2ccnc2)cc1	34 strains			>256 µg/mL
Clc1ccc(C(c2ccc3ccccc3c2)n2ccnc2)s1	23 strains			8 µg/mL
CC(=O)OCC1C=C(c2ccc(Cl)c(Cl)c2)C(=O)O1	25 isolates			4 µg/mL
Clc1ccc(C(c2ccc3ccccc3c2)n2ccnc2)cc1	23 strains			8 µg/mL
COc1ccc(C(Cn2cncn2)OCc2ccc(Cl)cc2Cl)cc1OC				65 µg/mL
Fc1ccc(COc2ccc(C(c3cccc4ccccc34)n3ccnc3)cc2)cc1.O=[N+]([O-])O	17 strains			≥256 µg/mL
CCCCCOc1ccc(-c2cc(-c3ccc(C(=O)N[C@H]4C[C@@H](O)[C@@H](O)NC(=O)[C@@H]5[C@@H](O)[C@@H](C)CN5C(=O)[C@H]([C@H](O)CC(N)=O)NC(=O)[C@H]([C@H](O)[C@@H](O)c5ccc(O)c(OS(=O)(=O)O)c5)NC(=O)[C@@H]5C[C@@H](O)CN5C(=O)[C@H]([C@@H](C)O)NC4=O)cc3)no2)cc1	37 isolates			0.0156 µg/mL
Clc1ccc(COc2ccc(C(c3ccc4ccccc4c3)n3ccnc3)cc2)c(Cl)c1	17 strains			≥256 µg/mL
COc1ccc(C(Cc2ccc(F)cc2)n2ccnc2)cc1	34 strains			128 µg/mL
OC(Cn1cncn1)(Cn1cncn1)c1ccc(F)cc1F	63 isolates		48 h	6.4 µg/mL
Clc1ccc(COC(Cn2ccnc2)c2ccc3c(c2)OCO3)c(Cl)c1				>100 µg/mL
Cn1cc(-c2ccccc2)c(C(c2ccc3ccccc3c2)n2ccnc2)c1	33 strains			>256 µg/mL
CC(N1CCN(c2ccc(-n3cnn(Cc4ccc(OC(F)(F)F)cc4)c3=O)cc2)CC1)C(O)(Cn1cncn1)c1ccc(F)cc1F	51 strains (fluconazole-susceptible)			0.09 µg/mL
COc1ccc([C@@H](Cc2ccc(Cl)cc2Cl)n2ccnc2)cc1	34 strains			4 µg/mL
CCC(C)n1ncn(-c2ccc(N3CCN(c4ccc(OC[C@H]5CO[C@](Cn6cncn6)(c6ccc(Cl)cc6Cl)O5)cc4)CC3)cc2)c1=O	50 isolates			0.4 µg/mL
CCC(C)CC(C)CCCCCCCCC(=O)N[C@H]1C[C@@H](O)[C@@H](OCCN)NC(=O)[C@@H]2[C@@H](O)CCN2C(=O)[C@H]([C@@H](O)CCN)NC(=O)[C@H]([C@H](O)[C@@H](O)c2ccc(O)cc2)NC(=O)[C@@H]2C[C@@H](O)CN2C(=O)[C@H]([C@H](C)O)NC1=O	Fluconazole-resistant			0.06 µg/mL
Clc1ccc(C(Cn2ccnc2)OCc2ccc3ccccc3c2)c(Cl)c1				16.2 µg/mL
Clc1cccc(Cl)c1COc1ccc(C(c2ccc(-c3ccccc3)cc2)n2ccnc2)cc1.O=[N+]([O-])O	16 strains			≥256 µg/mL
CC(=O)N1CCN(c2ccc(OC[C@H]3CO[C@](Cn4ccnc4)(c4ccc(Cl)cc4Cl)O3)cc2)CC1	50 isolates			0.01 µg/mL
C[C@@H](c1ncncc1F)[C@](O)(Cn1cncn1)c1ccc(F)cc1F	ATCC 90028			0.29 µg/mL
Cn1cc(-c2ccccc2)c(C(c2cccc3ccccc23)n2ccnc2)c1	33 strains			64 µg/mL
C[C@H]1[C@H](O)[C@@H](C)/C=C/C=C/C=C/C=C/C=C/C=C/C=C/[C@H](O[C@@H]2O[C@H](C)[C@@H](O)[C@H](N)[C@@H]2O)C[C@@H]2O[C@](O)(C[C@@H](O)C[C@@H](O)CC[C@H](O)[C@@H](O)C[C@@H](O)CC(=O)O[C@H]1C)C[C@H](O)[C@H]2C(=O)O	19 strains			1 µg/mL
COc1ccc(C(Cc2cccc(Cl)c2)n2ccnc2)cc1	34 strains			256 µg/mL
CC(N1CCN(c2ccc(-n3cnn(Cc4ccc(C(F)(F)F)cc4)c3=O)cc2F)CC1)C(O)(Cn1cncn1)c1ccc(F)cc1F	6 strains (fluconazole-resistant)			0.19 µg/mL
C=CCc1ccc(OC)c(OC)c1	2281	turbidity		350 µg/mL
COc1ccc(C(Cc2c(Cl)cccc2Cl)n2ccnc2)cc1	34 strains			64 µg/mL
C[C@H]1[C@H](O)[C@@H](C)/C=C/C=C/C=C/C=C/C=C/C=C/C=C/[C@H](O[C@@H]2O[C@H](C)[C@@H](O)[C@H](N)[C@@H]2O)C[C@@H]2O[C@](O)(C[C@@H](O)C[C@@H](O)CC[C@H](O)[C@@H](O)C[C@@H](O)CC(=O)O[C@H]1C)C[C@H](O)[C@H]2C(=O)O	9 isolates fluconazole-resistant			2 µg/mL
Clc1ccc(COC(Cn2cncn2)c2ccc(Cl)cc2Cl)c(Cl)c1				56 µg/mL
Clc1ccc(C(c2cccc3ccccc23)n2ccnc2)s1	23 strains			4 µg/mL
Clc1ccc(COC(Cn2ccnc2)c2cccc3ccccc23)c(Cl)c1				>100 µg/mL
Fc1ccc(COc2ccc(C(c3ccc4ccccc4c3)n3ccnc3)cc2)c(F)c1.O=[N+]([O-])O	17 strains			≥256 µg/mL
COc1ccc(C(c2ccc3ccccc3c2)n2ccnc2)cc1	23 strains			16 µg/mL
c1ccc(-c2ccc(C(c3c[nH]cc3-c3ccccc3)n3ccnc3)cc2)cc1	33 strains			128 µg/mL
c1csc(C(c2cccc3ccccc23)n2ccnc2)c1	23 strains			32 µg/mL
COc1ccc(COC(Cn2ccnc2)c2ccc(Cl)cc2Cl)cc1OC				59 µg/mL
c1ccc(-c2c[nH]cc2C(c2ccc3ccccc3c2)n2ccnc2)cc1	33 strains			32 µg/mL
Fc1ccc(COc2ccc(C(c3cccc4ccccc34)n3ccnc3)cc2)c(F)c1.O=[N+]([O-])O	16 strains			≥256 µg/mL

Again, the opening 5 rows:

smiles | strain or isolate | read by | setting | result
Clc1ccc(C(Cn2cncn2)OCc2cccc3ccccc23)c(Cl)c1 |  |  |  | >100 µg/mL
Clc1cccc(Cl)c1COc1ccc(C(c2ccc3ccccc3c2)n2ccnc2)cc1.O=[N+]([O-])O | 17 strains |  |  | ≥256 µg/mL
c1ccc2c(C(c3ccc(-n4cccc4)cc3)n3ccnc3)cccc2c1 | 23 strains |  |  | 4 µg/mL
COc1ccc(C(Cc2ccccc2[N+](=O)[O-])n2ccnc2)cc1 | 34 strains |  |  | >256 µg/mL
Clc1ccc(C(c2ccc3ccccc3c2)n2ccnc2)s1 | 23 strains |  |  | 8 µg/mL